Results of unrelated studies side by side (data: NIAID ChemDB).

Common to all: tests in culture; species: HIV-1; cell line: CEM + CEM-SS; measure: fold resistance

Fold resistance: result on the changed form divided by that on wild type.

structure	strain or isolate	mutations	method	value
Cc1cn([C@H]2C[C@H](N=[N+]=[N-])[C@@H](CO)O2)c(=O)[nH]c1=O	HEPT-resistant (RT P236L)	RT-P236L	XTT	0.2
CC1=C(C(=O)Nc2ccc(Cl)c(C(=O)OC(C)C)c2)SCCO1	IIIB(A17(III))	RT-K103N Y181C	cytopathic effect / XTT	>333
CCc1c(C(=O)c2cc(C)cc(C)c2)n(CC2CC=CC2)c(=O)[nH]c1=O	NL4-3	RT-T139I	cytopathic effect / XTT	1
c1ccc2c(c1)sc1nccn12	IIIB(OC-R(I))	RT-L100I	cytopathic effect / XTT	>200
Cc1occc1C(=S)Nc1ccc(Cl)c(/C=N/OC(C)(C)C)c1	NL4-3 (RT A98G)	RT-A98G	cytopathic effect / XTT	8.75
Cc1cn([C@H]2C[C@H](N=[N+]=[N-])[C@@H](CO)O2)c(=O)[nH]c1=O	NL4-3	RT-L74V	cytopathic effect / XTT	10
CC(C)=CCOc1cc(NC(=S)c2ccsc2C)ccc1Cl	Dihydrocostatolide-resistant (RT-L100I)	RT-L100I	XTT	0.6
CCc1c(Sc2ccccn2)n(COCc2ccccc2)c(=O)[nH]c1=O	UC781-R (RT-Y181C)	RT-Y181C	cytopathic effect / XTT	155
CCCc1cc(=O)oc2c3c(c4c(c12)OC(C)(C)C=C4)O[C@H](C)[C@@H](C)[C@@H]3O	IIIB(TIBO-R(I))	RT-A98G V108I	cytopathic effect / XTT	17.4
CCc1c(Sc2ccccn2)n(COCc2ccccc2)c(=O)[nH]c1=O	IIIB	RT-P236L	cytopathic effect / XTT	37
CC(C)=CCN1Cc2cccc3[nH]c(=S)n(c23)C[C@@H]1C	IIIB(TIBO-R(I))	RT-A98G V108I	cytopathic effect / XTT	>1000
Cc1ccnc2c1NC(=O)c1cccnc1N2C1CC1	Nevirapine-resistant (RT Y181C)	RT-Y181C	XTT	>3800
C/C=C/CSc1cc(NC(=S)c2ccsc2C)ccc1Cl	NL4-3 (RT M184V)	RT-M184V	cytopathic effect / XTT	2
Cc1ccnc2c1NC(=O)c1cccnc1N2C1CC1	NL4-3	RT-V106A	cytopathic effect / XTT	>100
Cc1cn([C@H]2C[C@H](N=[N+]=[N-])[C@@H](CO)O2)c(=O)[nH]c1=O	IIIB	RT-Y181C	cytopathic effect / XTT	0.2
Nc1nc(=O)n([C@@H]2CC[C@H](CO)O2)cc1F	N119 nevirapine-resistant (RT Y181C)	RT-Y181C	RT activity	10.5

Rows are shuffled and stem from different studies.